The values that follow come from publication PMC3795040, “Structure of a Bimodular Botulinum Neurotoxin Complex Provides Insights into Its Oral Toxicity” (2013).

In assay [1] the target is HA17 of BoNT/A (full-length, residues M1–I146) (Clostridium botulinum strain 62A (BoNT/A1-producing)).
Assay [2] has as its target HA70 of BoNT/A (full-length, residues M1–N626) (Clostridium botulinum strain 62A (BoNT/A1-producing)).
The target of assay [3] is HA70^D3 (D3 domain of HA70, residues P378–N626) (Clostridium botulinum strain 62A (BoNT/A1-producing)).

“HA33 of BoNT/A (full-length, residues M1–P293) (from UniProt Q45871 1-293)” came in with a stoichiometry N (HA33 per HA17) in assay [1] of 2. “HA17 of BoNT/A (full-length, residues M1–I146)” registered a stoichiometry N (HA17 per HA70) in assay [2] of 1. The substance also displayed a stoichiometry N (HA17 per HA70^D3) in assay [3] of 1.
